Pooled drug test results. Numbers come from NIAID ChemDB, via PubChem.

Common to all: tests in culture

Fold resistance has wild type as its base. Two numbers with a dash give a range or band. Conditions beyond the fields shown may differ between rows. ECn: concentration that inhibits the pathogen or its effect by n%.

{"SMILES": "Cc1ccnn1-c1ccc(-n2c(C(=O)NCc3ccccc3)c3n(c2=O)CCN(C(=O)c2ccc(Br)c(Cl)c2)C3)cc1", "cell line": "HepG2.117", "organism": "Hepatitis B virus", "read-out": "EC50", "read by": "PCR", "value": "0.5–5 µM"}
{"SMILES": "CNc1onc2cc(-n3c(=O)c4c(n5ncc(Cc6ccccc6)c35)CN(C(=O)c3ccc(Br)c(Cl)c3)CC4)ccc12", "cell line": "HepG2.117", "organism": "Hepatitis B virus", "read-out": "EC50", "read by": "luminescence", "value": "≤0.05 µM"}
{"SMILES": "O=C(NCc1ccccc1)c1c2n(c(=O)n1-c1ccc3[nH]ncc3c1)CCN(C(=O)c1ccc(Br)c(Cl)c1)C2", "cell line": "HepG2.117", "organism": "Hepatitis B virus", "read-out": "EC50", "read by": "PCR", "value": "0.5–5 µM"}
{"SMILES": "CC1(C)CC(=O)C2=C(C1)Nc1c(O)cccc1N(C(=O)Cc1ccccc1)C2c1ccc(Cl)cc1Cl", "organism": "Hepatitis C virus", "read-out": "EC50", "read by": "luciferase / reporter gene / replicon", "strain": "1b", "value": "3.33 µM"}
{"SMILES": "Cc1nnnn1-c1ccc(-n2c(=O)c3c(n4ncc(Cc5ccccc5)c24)CN(C(=O)c2ccc(Br)c(C(F)(F)F)c2)[C@H](C)C3)cc1", "cell line": "HepG2.117", "organism": "Hepatitis B virus", "read-out": "EC50", "read by": "luminescence", "value": "≤0.05 µM"}
{"SMILES": "CC1(C)CC(=O)C2=C(C1)Nc1c(O)cccc1N(C(=O)C1CCCC1)[C@H]2c1ccc(OCc2ccccc2)cc1F", "organism": "Hepatitis C virus", "read-out": "EC50", "read by": "luciferase / reporter gene / replicon", "strain": "1b", "value": "0.23 µM"}
{"SMILES": "NC(=S)Nc1cccc(OCCCCCCOc2cccc3ccccc23)c1", "cell line": "Ava5-EG(delta4AB)SEAP", "organism": "Hepatitis C virus", "read-out": "EC50", "read by": "reporter gene / fluorescence", "value": "0.001–1 µM"}
{"SMILES": "CNc1nsc2cc(-n3c(=O)c4c(n5ncc(Cc6ccccc6)c35)CN(C(=O)c3ccc(Br)c(Cl)c3)CC4)ccc12", "cell line": "HepG2.117", "organism": "Hepatitis B virus", "read-out": "EC50", "read by": "luminescence", "value": "≤0.05 µM"}
{"SMILES": "O=C(NCc1ccccc1)c1c2n(c(=O)n1-c1ccc(-n3cc(F)cn3)cc1)CCN(C(=O)c1ccc(Br)c(Cl)c1)C2", "cell line": "HepG2.117", "organism": "Hepatitis B virus", "read-out": "EC50", "read by": "PCR", "value": "0.1–0.5 µM"}
{"SMILES": "CNC(=O)c1ccc(-n2c(=O)c3c(n4ncc(CC5CC5)c24)CN(C(=O)c2ccc(Br)c(Cl)c2)[C@@H](C)C3)cc1", "cell line": "HepG2.117", "organism": "Hepatitis B virus", "read-out": "EC50", "read by": "luminescence", "value": "≤0.05 µM"}
{"SMILES": "CC1(C)CC(=O)C2=C(C1)Nc1c(O)cccc1N(C(=O)CCC(=O)Nc1ccccc1OC(F)F)C2c1ccc(OCc2ccccc2)cc1Cl", "organism": "Hepatitis C virus", "read-out": "EC50", "read by": "luciferase / reporter gene / replicon", "strain": "1b", "value": "1.46 µM"}
{"SMILES": "CC(C)(Oc1ccc(-n2c(C(=O)NCc3ccccc3)c3n(c2=O)CCN(C(=O)c2ccc(Br)c(Cl)c2)C3)cc1)C(F)(F)F", "cell line": "HepG2.117", "organism": "Hepatitis B virus", "read-out": "EC50", "read by": "PCR", "value": "0.5–5 µM"}
{"SMILES": "CC1(C)CC(=O)C2=C(C1)Nc1c(O)cccc1N(C(=O)c1ncc(F)cc1F)C2c1ccc(OCc2ccccc2)cc1F", "organism": "Hepatitis C virus", "read-out": "EC50", "read by": "luciferase / reporter gene / replicon", "strain": "1b", "value": "0.22 µM"}
{"SMILES": "COC(=O)N[C@H](C(=O)N1CCC[C@H]1c1ncc(-c2ccc(-c3ccc(-c4cnc([C@@H]5CCCN5C(=O)[C@@H](NC(=O)OC)C(C)C)[nH]4)cc3)cc2)[nH]1)C(C)C", "mutations": "L28V", "cell line": "ET", "organism": "Hepatitis C virus", "read-out": "EC50", "read by": "luciferase", "strain": "1b", "value": "0.0000026 µM"}
{"SMILES": "CCCCCCCCNC(=S)Nc1cccc(OCCCCCc2ccccc2)c1", "cell line": "Ava5-EG(delta4AB)SEAP", "organism": "Hepatitis C virus", "read-out": "EC50", "read by": "reporter gene / fluorescence", "value": "0.001–1 µM"}
{"SMILES": "Cc1nc(-c2ccc(-n3c(=O)c4c(n5ncc(CC(C)C)c35)CN(C(=O)c3ccc(Cl)c(C(F)(F)F)c3)[C@@H](C)C4)cc2)n[nH]1", "cell line": "HepG2.117", "organism": "Hepatitis B virus", "read-out": "EC50", "read by": "luminescence", "value": "0.5–5 µM"}
{"SMILES": "S=C(NCCCCc1ccccc1)Nc1cccc(OCCCCCc2ccccc2)c1", "cell line": "Ava5-EG(delta4AB)SEAP", "organism": "Hepatitis C virus", "read-out": "EC50", "read by": "reporter gene / fluorescence", "value": "0.001–1 µM"}
{"SMILES": "COc1ccc(-n2c(C(=O)NCc3ccc(C#N)cc3)c3n(c2=O)CCN(C(=O)c2ccc(Cl)c(Cl)c2)C3)cc1", "cell line": "HepG2.117", "organism": "Hepatitis B virus", "read-out": "EC50", "read by": "PCR", "value": ">5 µM"}
{"SMILES": "CC1CCC(C(=O)N(c2cc(C#CC(C)(C)C)sc2C(=O)O)C2CCC(O)CC2)CC1", "mutations": "L419M", "cell line": "Huh7", "organism": "Hepatitis C virus", "read-out": "fold resistance", "read by": "luciferase", "strain": "Con1 (gt 1b)", "value": "127.7"}
{"SMILES": "CCN1CCC[C@@H]1CNC(=O)CCC(=O)N1c2cccc(O)c2NC2=C(C(=O)CC(C)(C)C2)C1c1ccc(OCc2ccccc2)cc1Cl", "organism": "Hepatitis C virus", "read-out": "EC50", "read by": "luciferase / reporter gene / replicon", "strain": "1b", "value": "46.69 µM"}
{"SMILES": "O=C(N[C@@H](C(=O)N1CCC[C@H]1c1ncc(-c2ccc(-c3ccc(-c4cnc([C@@H]5CCCN5C(=O)[C@H](NC(=O)C5CC5)c5ccccc5)s4)cc3)cc2)s1)c1ccccc1)C1CC1", "mutations": "M265V", "cell line": "Huh7.5", "organism": "Hepatitis C virus", "read-out": "fold resistance", "read by": "luciferase / reporter gene", "strain": "genotype 1b", "value": "1"}
{"SMILES": "COc1ccc(-n2c(C(=O)N[C@@H](c3ccccc3)C(C)C)c3n(c2=O)CCN(C(=O)c2ccc(Br)c(Cl)c2)C3)cc1", "cell line": "HepG2.117", "organism": "Hepatitis B virus", "read-out": "EC50", "read by": "PCR", "value": "0.5–5 µM"}
{"SMILES": "CNc1n[nH]c2cc(-n3c(=O)c4c(n5ncc(CC(C)C)c35)CN(C(=O)c3ccc(Br)c(Cl)c3)[C@H](C)C4)ccc12", "cell line": "HepG2.117", "organism": "Hepatitis B virus", "read-out": "EC50", "read by": "luminescence", "value": "≤0.05 µM"}
{"SMILES": "COc1ccnc(C(=O)N2c3cccc(O)c3NC3=C(C(=O)CC(C)(C)C3)[C@@H]2c2ccc(OCc3ccccc3)cc2F)c1", "organism": "Hepatitis C virus", "read-out": "EC50", "read by": "luciferase / reporter gene / replicon", "strain": "1b", "value": "1.09 µM"}
{"SMILES": "COc1ccc([C@H](C)NC(=O)c2c3n(c(=O)n2-c2ccc(OC4CC4)cc2)CCN(C(=O)c2ccc(Br)c(Cl)c2)C3)cc1", "cell line": "HepG2.117", "organism": "Hepatitis B virus", "read-out": "EC50", "read by": "PCR", "value": "0.1–0.5 µM"}
{"SMILES": "CC(=O)N1c2cccc(O)c2NC2=C(C(=O)CC(C)(C)C2)C1c1ccc(Oc2ccccc2Br)s1", "organism": "Hepatitis C virus", "read-out": "EC50", "read by": "luciferase / reporter gene / replicon", "strain": "1b", "value": "2.86 µM"}
{"SMILES": "O=C(NCc1ccccc1)c1c2n(c(=O)n1-c1ccc3occc3c1)CCN(C(=O)c1ccc(Cl)c(Cl)c1)C2", "cell line": "HepG2.117", "organism": "Hepatitis B virus", "read-out": "EC50", "read by": "PCR", "value": "0.5–5 µM"}
{"SMILES": "COc1ccc(-c2ccccc2OCCCCCOc2cccc(NC(N)=S)c2)cc1", "cell line": "Ava5-EG(delta4AB)SEAP", "organism": "Hepatitis C virus", "read-out": "EC50", "read by": "reporter gene / fluorescence", "value": "0.001–1 µM"}
{"SMILES": "CC(=O)c1ccc(C2C3=C(CC(C)(C)CC3=O)Nc3c(O)cccc3N2C(C)=O)cc1", "organism": "Hepatitis C virus", "read-out": "EC50", "read by": "luciferase / reporter gene / replicon", "strain": "1b", "value": ">100 µM"}

The last 3 rows once more:

{"SMILES": "O=C(NCc1ccccc1)c1c2n(c(=O)n1-c1ccc3occc3c1)CCN(C(=O)c1ccc(Cl)c(Cl)c1)C2", "cell line": "HepG2.117", "organism": "Hepatitis B virus", "read-out": "EC50", "read by": "PCR", "value": "0.5–5 µM"}
{"SMILES": "COc1ccc(-c2ccccc2OCCCCCOc2cccc(NC(N)=S)c2)cc1", "cell line": "Ava5-EG(delta4AB)SEAP", "organism": "Hepatitis C virus", "read-out": "EC50", "read by": "reporter gene / fluorescence", "value": "0.001–1 µM"}
{"SMILES": "CC(=O)c1ccc(C2C3=C(CC(C)(C)CC3=O)Nc3c(O)cccc3N2C(C)=O)cc1", "organism": "Hepatitis C virus", "read-out": "EC50", "read by": "luciferase / reporter gene / replicon", "strain": "1b", "value": ">100 µM"}